Anti-infective test results gathered from many reports (values: NIAID ChemDB through PubChem).

Shared fields: growth or infection tests; species: HIV-1; cells: MT-2; read-out: EC50

ECn is the concentration giving n% inhibition of infection, replication or growth. Lines come from different laboratories, so protocols vary. An empty or dashed field is not shown.

CC(C)C1=C2[C@H]3CC[C@@H]4[C@@]5(C)CC[C@H](OC(=O)[C@H]6C[C@@H](C(=O)O)C6(C)C)C(C)(C)[C@@H]5CC[C@@]4(C)[C@]3(C)CC[C@@]2(CC(=O)N[C@H](CNC(=O)c2ccc(Cl)cc2)C(C)O)CC1=O ; strain: 92HT599 ; method: p24 / ELISA ; value: <1 µM
COc1ccc(N(C)C(=O)[C@H](Cc2cc(F)cc(F)c2)NC(=O)CS(=O)(=O)N[C@@H](Cc2cc(F)cc(F)c2)C(=O)N(C)c2ccc(OC)cc2)cc1 ; strain: NL4-3 ; method: luciferase ; value: 0.38 µM
Cc1ccc(OCCNc2ccc(-c3cnc(C)c([C@H](OC(C)(C)C)C(=O)O)c3N3CCC(C)(C)CC3)cn2)c(Cl)c1 ; strain: NL4-3 ; method: luminescence ; value: 0.004 µM
CC(C)C1=C2[C@H]3CC[C@@H]4[C@@]5(C)CC[C@H](OC(=O)[C@H]6C[C@@H](C(=O)O)C6(C)C)C(C)(C)[C@@H]5CC[C@@]4(C)[C@]3(C)CC[C@@]2([C@@H](O)CN(CCN(C)C)C(=O)c2nccs2)CC1=O ; strain: 92HT599 ; method: p24 / ELISA ; value: <1 µM
CC(C)C1=C2C3CCC4[C@@]5(C)CC[C@H](OC(=O)CC(C)(C)C(=O)O)C(C)(C)C5CC[C@@]4(C)[C@]3(C)CC[C@@]2(NC(=O)N[C@@H](C)C(F)(F)F)CC1=O ; strain: IIIB ; method: RT activity ; setting: 30% human serum ; value: <0.199 µM
Cc1cc(OCCN(C)c2ccc(-c3cnc(C)c([C@H](OC(C)(C)C)C(=O)O)c3N3CCC(C)(C)CC3)cn2)ccc1F ; strain: NL4-3 ; method: luminescence ; value: 0.0032 µM
CC(C)C1=C2C3CCC4[C@@]5(C)CC[C@H](OC(=O)CC(C)(C)C(=O)O)C(C)(C)C5CC[C@@]4(C)[C@]3(C)CC[C@@]2(NC(=O)c2ccccc2C(=O)O)CC1=O ; strain: IIIB ; method: RT activity ; setting: 30% human serum ; value: <0.199 µM
COc1ccc(N(C)C(=O)[C@H](Cc2ccccc2)NC(=O)Cn2c(=O)n(CC(=O)N[C@@H](Cc3ccccc3)C(=O)N(C)c3ccc(OC)cc3)c3ccccc32)cc1 ; strain: NL4-3 ; method: luciferase ; value: 0.07 µM
CC(C)C1=C2C3CCC4[C@@]5(C)CC[C@H](OC(=O)CC(C)(C)C(=O)O)C(C)(C)C5CC[C@@]4(C)[C@]3(C)CC[C@@]2(NC(=O)OC2CCCC2)CC1=O ; strain: IIIB ; method: RT activity ; setting: 30% human serum ; value: <0.199 µM
CC(C)C1=C2[C@H]3CC[C@@H]4[C@@]5(C)CC[C@H](OC(=O)[C@H]6C[C@@H](C(=O)O)C6(C)C)C(C)(C)[C@@H]5CC[C@@]4(C)[C@]3(C)CC[C@@]2(CC(=O)NC2(c3ccc(Cl)cc3)CCCC2)CC1=O ; strain: 92HT599 ; method: p24 / ELISA ; value: <1 µM
COC(C(C)C)C(C)Oc1ncc(-c2cnc(C)c([C@H](OC(C)(C)C)C(=O)O)c2N2CCC(C)(C)CC2)cc1F ; strain: NL4-3 ; method: luminescence ; value: 0.0036 µM
COc1ccc(N(C)C(=O)[C@H](Cc2ccccc2)NC(=O)[C@@H]2CC[C@H](C(=O)N[C@@H](Cc3ccccc3)C(=O)N(C)c3ccc(OC)cc3)C2)cc1 ; strain: NL4-3 ; method: luciferase ; value: 1.14 µM
CC(C)C1=C2[C@H]3CC[C@@H]4[C@@]5(C)CC[C@H](OC(=O)[C@H]6C[C@@H](C(=O)O)C6(C)C)C(C)(C)[C@@H]5CC[C@@]4(C)[C@]3(C)CC[C@@]2(CCNCC(C)(C)NC(=O)c2ccc(Cl)cc2O[C@H]2CCOC2)CC1=O ; strain: 92HT599 ; method: p24 / ELISA ; value: <1 µM
Cc1ccc(OCCOc2ccc(-c3cnc(C)c([C@H](OC(C)(C)C)C(=O)O)c3N3CCC(C)(C)CC3)nc2)cc1F ; strain: NL4-3 ; method: luminescence ; value: 0.0012 µM
COc1ccnc2[nH]cc(C(=O)C(=O)N3CCN(C(=O)c4ccccc4)C[C@H]3C)c12 ; strain: NL4-3(GP120-R350K) Recombinant ; changes: GP120-R350K ; method: RT activity ; value: 0.038 µM
Cc1ncc(-c2ccc(OCC3CC3)cn2)c(N2CCC(C)(C)CC2)c1[C@H](OC(C)C)C(=O)O ; strain: NL4-3 ; method: luminescence ; value: 0.01 µM
CC(=O)N1CCC(C(=O)N[C@@]23CC[C@]4(C)[C@H](CC[C@@H]5[C@@]6(C)CC[C@H](OC(=O)CC(C)(C)C(=O)O)C(C)(C)[C@@H]6CC[C@]54C)C2=C(C(C)C)C(=O)C3)CC1 ; strain: IIIB ; method: RT activity ; setting: 30% human serum ; value: <0.199 µM
COc1ccc(N(C)C(=O)[C@H](Cc2cc(F)cc(F)c2)NC(=O)CN2c3ccccc3N(CC(=O)N[C@@H](Cc3cc(F)cc(F)c3)C(=O)N(C)c3ccc(OC)c(F)c3)S2(=O)=O)cc1F ; strain: NL4-3 ; method: luciferase ; value: 0.04 µM
COc1cc(Cl)ccc1OCCNc1ccc(-c2cnc(C)c([C@H](OC(C)(C)C)C(=O)O)c2N2CCC(C)(C)CC2)nc1 ; strain: NL4-3 ; method: luminescence ; value: 0.002 µM
CC(C)C1=C2C3CCC4[C@@]5(C)CC[C@H](OC(=O)CC(C)(C)C(=O)O)C(C)(C)C5CC[C@@]4(C)[C@]3(C)CC[C@@]2(NC(=O)OC2CCN(C(=O)OC(C)(C)C)CC2)CC1=O ; strain: IIIB ; method: RT activity ; setting: 30% human serum ; value: <0.199 µM
C=CCN(C(=O)[C@H](Cc1cc(F)cc(F)c1)NC(=O)c1nccnc1C(=O)N[C@@H](Cc1cc(F)cc(F)c1)C(=O)N(CC=C)c1ccc(OC)cc1)c1ccc(OC)cc1 ; strain: NL4-3 ; method: luciferase ; value: 3.73 µM
CC(C)C1=C2C3CCC4[C@@]5(C)CC[C@H](OC(=O)CC(C)(C)C(=O)O)C(C)(C)C5CC[C@@]4(C)[C@]3(C)CC[C@@]2(NC(=O)NC(C)(C)c2ccccc2)CC1=O ; strain: IIIB ; method: RT activity ; setting: 30% human serum ; value: <0.199 µM
CC(C)C1=C2[C@H]3CC[C@@H]4[C@@]5(C)CC[C@H](OC(=O)[C@H]6C[C@@H](C(=O)O)C6(C)C)C(C)(C)[C@@H]5CC[C@@]4(C)[C@]3(C)CC[C@@]2(CC(=O)NCc2nccn2C)CC1=O ; strain: 92HT599 ; method: p24 / ELISA ; value: <1 µM
CC(C)C1=C2C3CCC4[C@@]5(C)CC[C@H](OC(=O)CC(C)(C)C(=O)O)C(C)(C)C5CC[C@@]4(C)[C@]3(C)CC[C@@]2(NC(=O)C2CC3CCC(C2)O3)CC1=O ; strain: IIIB ; method: RT activity ; setting: 30% human serum ; value: <0.199 µM
Nc1nc(NC2CC2)c2ncn([C@H]3C=C[C@@H](CO)C3)c2n1 ; strain: Clinical isolate ; changes: M41L/K67N/K70R/Y181C/G190A/L210W/T215Y/K219E ; method: recombinant virus assay ; value: 0.4928 µM
CC(C)C1=C2[C@H]3CC[C@@H]4[C@@]5(C)CC[C@H](OC(=O)CC(C)(C)C(=O)O)C(C)(C)[C@@H]5CC[C@@]4(C)[C@]3(C)CC[C@@]2(NC(=O)c2ccncc2)CC1=O ; strain: IIIB ; method: RT activity ; setting: 30% human serum ; value: <0.199 µM
CC(C)C1=C2[C@H]3CC[C@@H]4[C@@]5(C)CC[C@H](OC(=O)[C@H]6C[C@@H](C(=O)O)C6(C)C)C(C)(C)[C@@H]5CC[C@@]4(C)[C@]3(C)CC[C@@]2([C@@H](O)CNC(=O)[C@H](CO)NC(=O)c2ccc(Cl)cc2)CC1=O ; strain: 92HT599 ; method: p24 / ELISA ; value: <1 µM
Cc1nc(C(=O)N[C@@]23CC[C@]4(C)C(CCC5[C@@]6(C)CC[C@H](OC(=O)CC(C)(C)C(=O)O)C(C)(C)C6CC[C@]54C)C2=C(C(C)C)C(=O)C3)no1 ; strain: IIIB ; method: RT activity ; setting: 30% human serum ; value: <0.199 µM
CC(C)C1=C2[C@H]3CC[C@@H]4[C@@]5(C)CC[C@H](OC(=O)[C@H]6C[C@@H](C(=O)O)C6(C)C)C(C)(C)[C@@H]5CC[C@@]4(C)[C@]3(C)CC[C@@]2(CCNCC(C)(C)NC(=O)c2nccs2)CC1=O ; strain: 92HT599 ; method: p24 / ELISA ; value: <1 µM
C#C[C@@]1(CO)C=C[C@H](n2cc(C)c(=O)[nH]c2=O)O1 ; strain: Clinical isolate ; changes: M41L/D67N/K70R/A98G/K101E/M184V/G190A/L210W/T215Y/K219E ; method: recombinant virus assay ; value: >46.2 µM

Again, the opening 3 rows:

smiles,strain,changes,method,setting,value
CC(C)C1=C2[C@H]3CC[C@@H]4[C@@]5(C)CC[C@H](OC(=O)[C@H]6C[C@@H](C(=O)O)C6(C)C)C(C)(C)[C@@H]5CC[C@@]4(C)[C@]3(C)CC[C@@]2(CC(=O)N[C@H](CNC(=O)c2ccc(Cl)cc2)C(C)O)CC1=O,92HT599,-,p24 / ELISA,-,<1 µM
COc1ccc(N(C)C(=O)[C@H](Cc2cc(F)cc(F)c2)NC(=O)CS(=O)(=O)N[C@@H](Cc2cc(F)cc(F)c2)C(=O)N(C)c2ccc(OC)cc2)cc1,NL4-3,-,luciferase,-,0.38 µM
Cc1ccc(OCCNc2ccc(-c3cnc(C)c([C@H](OC(C)(C)C)C(=O)O)c3N3CCC(C)(C)CC3)cn2)c(Cl)c1,NL4-3,-,luminescence,-,0.004 µM